Reference: PubChem BioAssay AID1224833 (University of Georgia, 2016)
The deposit covers about 12,000 reagents; shown is an unselected part. About 5,600 of all reagents (46%) were called active. 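Active calls cover z-scores past 1 in both directions, so they include lowered as well as raised rotavirus replication.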 Entries without a mark were called inactive. No sequences are given here.

- Aim: 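Human genes whose knock-down alters rotavirus replication in monkey cells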 (primary screen)
- System: monkey MA104 kidney cells
- Reagent: siRNA pool against human genes, 50 nM
- Duration: 48 h knock-down before infection; read 24 h after infection
- Conditions: infection with rotavirus strain RV3 two days after transfection; infectious dose for this stage not given
- Read-out: 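Rotavirus antigen per well by fluorescent immunoassay, normalised to non-targeting control wells on each plate and given as a standard z-score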
- Direction: z-score vs non-targeting control: higher = more rotavirus replication than with non-targeting control
- Call rule: In these data the active calls have z-score vs non-targeting control at about -1 or lower, or at about 1 or higher
- Meaning of the calls: active = z-score beyond 1 either way; inactive = z-score within 1 of zero

| z-score vs non-targeting control | gene |
| --- | --- |
| -1.16 (active) | EIF5A (eukaryotic translation initiation factor 5A) |
| -1.34 (active) | LIPT1 (lipoyltransferase 1) |
| 1.24 (active) | CCDC38 (coiled-coil domain containing 38) |
| -1.47 (active) | HYCC1 (hyccin PI4KA lipid kinase complex subunit 1) |
| 0.0492 | INSL4 (insulin like 4) |
| 1.24 (active) | PKD1L1-AS1 (PKD1L1 antisense RNA 1) |
| -0.811 | KLHL20 (kelch like family member 20) |
| -1.29 (active) | SLC38A1 |
| -1.34 (active) | PTGES3 (prostaglandin E synthase 3) |
| -1.35 (active) | SLC27A5 |
| -5.55 (active) | ARPP19 (cAMP regulated phosphoprotein 19) |
| -2.33 (active) | ZNF429 (zinc finger protein 429) |
| -0.293 | C11orf40 (chromosome 11 putative open reading frame 40) |
| 0.441 | VWA2 (von Willebrand factor A domain containing 2) |
| -1.83 (active) | ERLEC1 (endoplasmic reticulum lectin 1) |
| -1.47 (active) | SUGP1 (SURP and G-patch domain containing 1) |
| 0.511 | DDX55 (DEAD-box helicase 55) |
| -0.575 | CD28 (CD28 molecule) |
| 1.55 (active) | HS3ST5 (heparan sulfate-glucosamine 3-sulfotransferase 5) |
| -1.35 (active) | NRN1 (neuritin 1) |
| -0.514 | SERP1 (stress associated endoplasmic reticulum protein 1) |
| -0.803 | CCL5 (C-C motif chemokine ligand 5) |
| -0.1 | AGR2 |
| -0.967 | LHCGR (luteinizing hormone/choriogonadotropin receptor) |
| 1.3 (active) | COX15 (cytochrome c oxidase assembly factor COX15) |
| -2.32 (active) | SCARA3 (scavenger receptor class A member 3) |
| 2.53 (active) | BAG4 (BAG cochaperone 4) |
| 0.125 | GBP2 (guanylate binding protein 2) |
| -1.35 (active) | AIPL1 (AIP like 1 HSP90 co-chaperone) |
| -1.51 (active) | SYT5 (synaptotagmin 5) |
| -1.46 (active) | SCD (stearoyl-CoA desaturase) |
| -0.445 | RRP8 (ribosomal RNA processing 8) |
| -1.91 (active) | ENTPD3 (ectonucleoside triphosphate diphosphohydrolase 3) |
| -0.371 | LSM11 (LSM11, U7 small nuclear RNA associated) |
| 0.65 | TNS2 (tensin 2) |
| 0.176 | DOCK5 (dedicator of cytokinesis 5) |
| 0.175 | DMWD (DM1 locus, WD repeat containing) |
| -0.216 | OR5M1 (olfactory receptor family 5 subfamily M member 1) |
| 0.22 | ZNF397 (zinc finger protein 397) |
| 2.09 (active) | ATP8B4 (ATPase phospholipid transporting 8B4 (putative)) |
| -1.52 (active) | FAM194C (family with sequence similarity 194 member C) |
| 0.007 | DNAJC15 (DnaJ heat shock protein family (Hsp40) member C15) |
| -0.451 | CTAG1B (cancer/testis antigen 1B) |
| -0.352 | APOOL (apolipoprotein O like) |
| -1.66 (active) | DAXX (death domain associated protein) |
| -0.484 | ELOVL1 (ELOVL fatty acid elongase 1) |
| -0.803 | NUB1 (negative regulator of ubiquitin like proteins 1) |
| -1.91 (active) | CYC1 (cytochrome c1) |
| -0.878 | INHBE (inhibin subunit beta E) |
| 1.15 (active) | TADA3 (transcriptional adaptor 3) |
| 0.955 | TAFA2 (TAFA chemokine like family member 2) |
| 1.68 (active) | NOC3L (NOC3 like DNA replication regulator) |
| -3.86 (active) | CARD14 (caspase recruitment domain family member 14) |
| -1.78 (active) | FIGNL1 (fidgetin like 1) |
| -0.903 | HOOK1 (hook microtubule tethering protein 1) |
| 0.132 | INS-IGF2 (INS-IGF2 readthrough) |
| 1.4 (active) | UBB (ubiquitin B) |
| 0.0766 | ZNF566 (zinc finger protein 566) |
| -0.515 | ZBTB3 (zinc finger and BTB domain containing 3) |
| -1.13 (active) | PEX6 (peroxisomal biogenesis factor 6) |
| -2.51 (active) | ZNF703 (zinc finger protein 703) |
| 0.945 | WIPF2 (WAS/WASL interacting protein family member 2) |

Reformatted: 15 of the entries above
INSL4 (insulin like 4)
- z-score vs non-targeting control: 0.0492

PKD1L1-AS1 (PKD1L1 antisense RNA 1)
- z-score vs non-targeting control: 1.24 (active)

KLHL20 (kelch like family member 20)
- z-score vs non-targeting control: -0.811

SLC38A1
- z-score vs non-targeting control: -1.29 (active)

PTGES3 (prostaglandin E synthase 3)
- z-score vs non-targeting control: -1.34 (active)

SLC27A5
- z-score vs non-targeting control: -1.35 (active)

ARPP19 (cAMP regulated phosphoprotein 19)
- z-score vs non-targeting control: -5.55 (active)

ZNF429 (zinc finger protein 429)
- z-score vs non-targeting control: -2.33 (active)

C11orf40 (chromosome 11 putative open reading frame 40)
- z-score vs non-targeting control: -0.293

VWA2 (von Willebrand factor A domain containing 2)
- z-score vs non-targeting control: 0.441

ERLEC1 (endoplasmic reticulum lectin 1)
- z-score vs non-targeting control: -1.83 (active)

SUGP1 (SURP and G-patch domain containing 1)
- z-score vs non-targeting control: -1.47 (active)

DDX55 (DEAD-box helicase 55)
- z-score vs non-targeting control: 0.511

CD28 (CD28 molecule)
- z-score vs non-targeting control: -0.575

HS3ST5 (heparan sulfate-glucosamine 3-sulfotransferase 5)
- z-score vs non-targeting control: 1.55 (active)

The list goes on.
| z-score vs non-targeting control | gene |
| --- | --- |
| -0.323 | MINDY3 (MINDY lysine 48 deubiquitinase 3) |
| 1.04 (active) | ENOX2 (ecto-NOX disulfide-thiol exchanger 2) |
| 0.0162 | ADNP (activity dependent neuroprotector homeobox) |
| 1.45 (active) | ZNF800 (zinc finger protein 800) |
| 0.116 | USP54 (ubiquitin specific peptidase 54) |
| -0.174 | CNKSR3 (CNKSR family member 3) |
| -0.0913 | IFNE (interferon epsilon) |
| 0.934 | C9orf72 (C9orf72-SMCR8 complex subunit) |
| 1.2 (active) | NHERF2 (NHERF family PDZ scaffold protein 2) |
| 0.212 | CEP43 (centrosomal protein 43) |
| 0.122 | LILRA4 (leukocyte immunoglobulin like receptor A4) |
| 1.03 (active) | RHBDD3 (rhomboid domain containing 3) |
| 0.769 | DNAJA3 (DnaJ heat shock protein family (Hsp40) member A3) |
| -0.704 | TBATA (thymus, brain and testes associated) |
| -0.7 | AMY1A (amylase alpha 1A) |
| 1.25 (active) | SERTM1 (serine rich and transmembrane domain containing 1) |
| 1.08 (active) | CLDN8 (claudin 8) |
| -2.32 (active) | SHTN1 (shootin 1) |
| -0.71 | CYP7B1 (cytochrome P450 family 7 subfamily B member 1) |
| 0.9 | EIF1B (eukaryotic translation initiation factor 1B) |
| -0.244 | ZNF454 (zinc finger protein 454) |
| 2.41 (active) | LHX3 (LIM homeobox 3) |
| -0.777 | RANBP10 (RAN binding protein 10) |
| 1.25 (active) | CARM1 (coactivator associated arginine methyltransferase 1) |
| -2.33 (active) | RCVRN (recoverin) |
| -1.17 (active) | C9orf43 (chromosome 9 open reading frame 43) |
| -1.08 (active) | UNC93A (unc-93 homolog A) |
| 0.822 | KIF27 (kinesin family member 27) |
| -1.24 (active) | SERPINI2 (serpin family I member 2) |
| 0.714 | EXOSC1 (exosome component 1) |
| -0.03 | KHDRBS2 |
| -1.97 (active) | AP2S1 (adaptor related protein complex 2 subunit sigma 1) |
| -2.14 (active) | ZNF311 (zinc finger protein 311) |
| 0.465 | MLEC (malectin) |
| 0.99 | ZNF709 (zinc finger protein 709) |
| -1.74 (active) | ELK3 (ETS transcription factor ELK3) |
| -0.744 | TIGD2 (tigger transposable element derived 2) |
| -1.16 (active) | RABGAP1 (RAB GTPase activating protein 1) |
| -0.0768 | PLEKHS1 (pleckstrin homology domain containing S1) |
| 0.926 | OR52W1 (olfactory receptor family 52 subfamily W member 1) |
| -0.888 | EID1 (EP300 interacting inhibitor of differentiation 1) |
| -0.659 | MARCKS (myristoylated alanine rich protein kinase C substrate) |
| 1.09 (active) | CATSPERB (catsper channel auxiliary subunit beta) |
| -1.09 (active) | EGR2 (early growth response 2) |
| -1.87 (active) | PRDM11 (PR/SET domain 11) |
| -0.474 | THAP2 (THAP domain containing 2) |
| -0.787 | C6orf118 (chromosome 6 open reading frame 118) |
| 0.525 | AHSA1 (activator of HSP90 ATPase activity 1) |
